Where two headings read alike, the source gives them in different places.
Molecular target: HCV NS3 protease (UniProt P26663)
Description: Recombinant HCV NS3 Protease/NS4A Cofactor Peptide Radiometric Assay
The enzyme was cloned, expressed and prepared according to the protocol described in Example 36. The enzyme was stored at −80° C., thawed on ice and diluted just prior to use in the assay buffer containing the NS4A cofactor peptide.
The substrate used for the NS3 protease/NS4A cofactor peptide radiometric assay, DDIVPC-SMSYTW, is cleaved between the cysteine and the serine residues by the enzyme. The sequence DDIVPC-SMSYTW corresponds to the NS5A/NS5B natural cleavage site in which the cysteine residue in P2 has been substituted for a proline. The peptide substrate DDIVPC-SMSYTW and the tracer biotin-DDIVPC-SMS[^125I-Y]TW are incubated with the recombinant NS3 protease and the NS4A peptide cofactor KKGSVVIVGRIILSGRK (molar ratio enzyme:cofactor 1:100) in the absence or presence of inhibitors. The separation of substrate from products is performed by adding avidin-coated agarose beads to the assay mixture followed by filtration. The amount of SMS[^125I-Y]TW product found in the filtrate allows for the calculation of the percentage of substrate conversion and of the percentage of inhibition.
The enzymatic reaction was initiated by the addition of the enzyme/NS4A peptide solution and the assay mixture was incubated for 40 min at 23° C. under gentle agitation. Ten (10) μL of 0.5N NaOH were added and 10 μL 1 M MES, pH 5.8 were added to quench the enzymatic reaction.
A non-linear curve fit with the Hill model was applied to the inhibition-concentration data, and the 50% effective concentration (IC50) was calculated by the use of SAS software (Statistical Software System; SAS Institute, Inc. Cary, N.C.). […]
The NS2-NS5B-3′ non coding region was cloned by RT-PCR into the pCR®3 vector (Invitrogen) using RNA extracted from the serum of an HCV genotype 1b infected individual (provided by Dr. Bernard Willems, Hôpital St-Luc, Montréal, Québec, Canada). The NS3-NS4A DNA region was then subcloned by PCR into the pFastBac™ HTa baculovirus expression vector (Gibco/BRL). The vector sequence includes a region encoding a 28-residue N-terminal sequence which contains a hexahistidine tag. The Bac-to-Bac™ baculovirus expression system (Gibco/BRL) was used to produce the recombinant baculovirus. The full length mature NS3 and NS4A heterodimer protein (His-NS3-NS4AFL) was expressed by infecting 10^6 Sf21 cells/mL with the recombinant baculovirus at a multiplicity of infection of 0.1-0.2 at 27° C. The infected culture was harvested 48 to 64 h later by centrifugation at 4° C. The cell pellet was homogenized in 50 mM NaPO4, pH 7.5, 40% glycerol (w/v), 2 mM β-mercaptoethanol, in presence of a cocktail of protease inhibitors. His-NS3-NS4AFL was then extracted from the cell lysate with 1.5% NP-40, 0.5% Triton X-100, 0.5M NaCl, and a DNase treatment. After ultracentrifugation, the soluble extract was diluted 4-fold and bound on a Pharmacia Hi-Trap Ni-chelating column. The His-NS3-NS4AFL was eluted in a >90% pure form (as judged by SDS-PAGE), using a 50 to 400 mM imidazole gradient. The His-NS3-NS4AFL was stored at −80° C. in 50 mM sodium phosphate, pH 7.5, 10% (w/v) glycerol, 0.5 M NaCl, 0.25 M imidazole, 0.1% NP-40. It was thawed on ice and diluted just prior to use. The protease activity of His-NS3-NS4AFL was assayed in 50 mM Tris-HCl, pH 8.0, 0.25 M sodium citrate, 0.01% (w/v) n-dodecyl-β-D-maltoside, 1 mM TCEP. Five (5) μM of the internally quenched substrate anthranilyl-DDIVPAbu[C(O)—O]-AMY(3-NO2)TW-OH in presence of various concentrations of inhibitor were incubated with 1.5 nM of His-NS3-NS4AFL for 45 min at 23° C. […] The reaction was terminated with the addition of 1M MES, pH 5.8. Fluorescence of the N-terminal product was monitored on a Perkin-Elmer LS-50B fluorometer equipped with a 96-well plate reader (excitation wavelength: 325 nm; emission wavelength: 423 nm).
The following tables list compounds representative of the invention.

By UniProt entry, the sequences of proteins in these tests, tags left out. Where a name states a change or a piece, a line headed by the entry shows the natural chain unless it says otherwise. Residues count along the entry.
UniProt P26663, 1027-1206 limits assumed: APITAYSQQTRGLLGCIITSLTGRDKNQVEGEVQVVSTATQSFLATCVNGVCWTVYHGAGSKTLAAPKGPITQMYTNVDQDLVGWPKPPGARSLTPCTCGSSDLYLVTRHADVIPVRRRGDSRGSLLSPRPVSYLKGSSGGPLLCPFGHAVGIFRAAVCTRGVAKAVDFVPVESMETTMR

SMILES | IC50 (Table 1) [µM] | IC50 (Table 3) [µM] | other results
CC(C)[C@H](NC(=O)OC(C)(C)C)C(=O)N1C[C@H](Oc2cc(-c3ccccc3)nc3ccc([N+](=O)[O-])cc23)C[C@H]1C(=O)NC1(C(=O)O)CC1 | 8.9 |  | 
CC(C)(OC(=O)N[C@H](C(=O)N1C[C@H](OCc2cccc3ccccc23)C[C@H]1C(=O)NC1(C(=O)O)CC1)C1CCCCC1)C(Cl)(Cl)Cl | 34 |  | 
C=C[C@H]1C[C@]1(NC(=O)[C@@H]1C[C@@H](Oc2cc(-c3ccccc3)nc3cc(OC)ccc23)CN1C(=O)[C@@H](NC(=O)OC(C)(C)C)C(C)(C)C)C(=O)O |  |  | IC50 (Table 2): 0.082 µM; IC50 (read-out: activity / potency (HCV NS3 protease inhibition), text comparison of P1 configuration): 0.082 µM
C=CC1CC1(NC(=O)C1CC(Oc2cc(-c3ccccn3)nc(-c3ccccn3)c2)CN1C(=O)C(NC(=O)OC(C)(C)C)C(C)(C)C)C(=O)O (stereo not drawn) |  | 0.36 | 
C=CC1CC1(NC(=O)C1CC(Oc2cccc3ncccc23)CN1C(=O)C(NC(=O)OC(C)(C)C)C1CCCCC1)C(=O)O (stereo not drawn) |  | 8.5 | 

From US6534523B1, “Hepatitis C inhibitor tri-peptides” (Boehringer Ingelheim (Canada) Ltd., priority 1998, dated 2003)
